Results of unrelated studies side by side (data: NIAID ChemDB).

ICn: concentration for n% inhibition. ECn is the concentration giving n% inhibition of infection, replication or growth. Blank or dashed fields: not listed here. Percent inhibition refers to the dose given; in toxicity tests it is the harm to the cells. CCn: concentration that lowers growth or viability of the cells by n%. Rows are shuffled and stem from different studies.

CC(=O)NCC1C(N)C(C(=O)O)CN1C(=O)N(C)C ; target: Neuraminidase ; organism: Influenza A virus ; test: target ; strain or isolate: A/TOKYO/67 ; measure: Ki ; result: 260 µM
CC(CC(=O)Nc1ccc(CC(=O)O)cc1)NC(=O)CC(C)NC(=O)c1ccc2c(c1)nc(-c1ccoc1)n2C1CCCCC1 ; target: RNA-dependent RNA polymerase ; organism: Poliovirus ; test: target ; measure: IC50 ; result: >25 µM
CC(=O)NC(CC(C)C)C1NC(C(=O)[O-])CC1N ; target: Neuraminidase ; organism: Influenza A virus ; test: target ; strain or isolate: A/TOKYO/67 ; measure: IC50 ; result: 6.2 µM
O=C(O)COc1ccc2[nH]cc(C[C@H](NC(=O)c3ccc4c(c3)nc(-c3ccoc3)n4C3CCCCC3)C(=O)O)c2c1 ; target: RNA-dependent RNA polymerase ; organism: Poliovirus ; test: target ; measure: IC50 ; result: >25 µM
Nc1nc(=O)n([C@@H]2C=C(CO)[C@@H](O)[C@H]2O)cc1I ; organism: Variola virus ; test: culture ; strain or isolate: Bangladesh 1975 ; measure: EC50 ; result: 10.4 µg/mL
COC(=O)C1CC(C(=O)O)NC1CNC(C)=O ; target: Neuraminidase ; organism: Influenza A virus ; test: target ; strain or isolate: A/TOKYO/67 ; measure: IC50 ; result: 0.9 µM
O=C(O)/C=C/c1ccc(O[C@H]2CCN(C(=O)c3ccc4c(c3)nc(-c3ccoc3)n4C3CCCCC3)C2)cc1 ; target: RNA-dependent RNA polymerase ; organism: Poliovirus ; test: target ; measure: IC50 ; result: >25 µM
CC(C)(C)OC(=O)N1CC(N)C(C(=O)O)C1 ; target: Neuraminidase ; organism: Influenza A virus ; test: target ; strain or isolate: A/TOKYO/67 ; measure: Ki ; result: 58 µM
O=C(N[C@@H](Cc1ccc(O)c(-c2nn[nH]n2)c1)C(=O)O)c1ccc2c(c1)nc(-c1ccoc1)n2C1CCCCC1 ; target: RNA-dependent RNA polymerase ; organism: Poliovirus ; test: target ; measure: IC50 ; result: >25 µM
CCCCCCCCCCCCC/C=C/[C@@H](O)[C@H](CO[C@@H]1O[C@H](CO)[C@H](O)[C@H](OS(=O)(=O)O)[C@H]1O)NC(=O)CCCCCCCCCCCCCCCCCCCCCCC ; target: Sialidase ; organism: Influenza A virus ; test: target ; strain or isolate: H3N8 A/mallard/Alberta/23/89 ; measure: inhibition ; dose: 200 µM ; result: 48.5%
COc1ccc(CCNC(=O)c2ccc3c(c2)nc(-c2ccccc2F)n3C2CCCCC2)cc1OC ; target: RNA-dependent RNA polymerase ; organism: Poliovirus ; test: target ; measure: IC50 ; result: >25 µM
Nc1ccn([C@@H]2C=C(CO)[C@@H](O)[C@H]2O)c(=O)n1 ; organism: Variola virus ; test: culture ; strain or isolate: Bangladesh 1975 ; measure: EC50 ; result: 0.03 µg/mL
O=C(N[C@@H](Cc1c[nH]c2ccc(O)cc12)C(=O)O)c1ccc2c(c1)nc(-c1cccs1)n2C1CCCCC1 ; target: RNA-dependent RNA polymerase ; organism: Poliovirus ; test: target ; measure: IC50 ; result: >25 µM
Nc1nc2c(ncn2[C@@H]2O[C@H](CO)[C@@H](O)[C@@H]2O)c(=O)[nH]1 ; test: toxicity ; cells: VERO ; measure: CC50 ; result: >1000 µM
Cn1cc(NC(=O)c2cc(NC(=O)c3cc([N+](=O)[O-])cn3C)cn2C)cc1C(=O)NCCC(=N)N ; organism: Vaccinia virus ; test: culture ; strain or isolate: Noguchi ; cells: BSC-1 ; measure: inhibition ; dose: 10 µg/mL ; result: 0%
Brc1ccc(C2=Cc3ccccc3OC2)cc1 ; organism: Poliovirus ; test: culture ; strain or isolate: IB (TYPE 2) ; cells: HEP-2 ; measure: inhibition ; dose: 10 µM ; result: 0%
Cc1cn([C@@H]2O[C@H](CO)[C@@H](O)[C@@H]2F)c(=O)[nH]c1=O ; test: toxicity ; cells: C1271 ; measure: CC50 ; result: 17 µM
O=C(N[C@H](C(=O)O)c1c[nH]c2ccc(O)cc12)c1ccc2c(c1)nc(C1CCCO1)n2C1CCCCC1 ; target: RNA-dependent RNA polymerase ; organism: Poliovirus ; test: target ; measure: IC50 ; result: >25 µM
Brc1ccc(C2=Cc3cc(Br)ccc3OC2)cc1 ; organism: Poliovirus ; test: culture ; strain or isolate: TYPE 2 ; cells: HEP-2 ; measure: inhibition ; dose: 10 µM ; result: 40%
Nc1ccn(C[C@@H](CO)OCP(=O)(O)O)c(=O)n1 ; organism: Variola virus ; test: culture ; strain or isolate: Isolate Horn ; cells: VERO ; measure: EC50 ; result: 11 µg/mL
Clc1ccc2c(c1)C=C(c1ccc(Br)cc1)CO2 ; organism: Poliovirus ; test: culture ; strain or isolate: TYPE 2 ; cells: HEP-2 ; measure: EC50 ; result: >10 µM
CC(C)[C@H](Cc1ccc(O)cc1)NC(=O)c1ccc2c(c1)nc(-c1ccoc1)n2C1CCCCC1 ; target: RNA-dependent RNA polymerase ; organism: Poliovirus ; test: target ; measure: IC50 ; result: >25 µM
CCN(C(=O)N1C[C@H](C(=O)O)[C@H](N)[C@H]1CNC(C)=O)C(C)C ; target: Neuraminidase ; organism: Influenza A virus ; test: target ; strain or isolate: A/TOKYO/67 ; measure: Ki ; result: 2.1 µM
CO[C@H]1[C@@H](O)[C@H](n2cnc3c(N)ncnc32)O[C@@H]1CO ; test: toxicity ; cells: C1271 ; measure: CC50 ; result: 275 µM
Clc1ccc(C2COc3ccccc3C2)cc1 ; organism: Poliovirus ; test: culture ; strain or isolate: IA (TYPE 2) ; cells: HEP-2 ; measure: inhibition ; dose: 10 µM ; result: 20%
CCCCCCCCCCCCCCCCCC(=O)OC[C@@H](COP(=O)(O)OCCNCCO[C@@]1(C(=O)O)O[C@@H]([C@H](O)[C@H](O)CO)[C@H](NC(C)=O)[C@@H](O)[C@H]1F)OC(=O)CCCCCCCCCCCCCCCCC ; target: Sialidase ; organism: Influenza A virus ; test: target ; strain or isolate: H9N2 A/DUCK/86/1/76 ; measure: IC50 ; result: 125 µM
Nc1ncnc2c1ncn2[C@@H]1C=C(CO)[C@@H](O)[C@H]1O ; organism: Variola virus ; test: culture ; strain or isolate: 7124 ; cells: MK2 ; measure: EC50 ; result: 0.1 µg/mL
O=C(O)COc1ccc(C[C@H](NC(=O)c2ccc3c(c2)nc(-c2ccoc2)n3C2CCCCC2)c2cscn2)cc1 ; target: RNA-dependent RNA polymerase ; organism: Poliovirus ; test: target ; measure: IC50 ; result: >25 µM
CCC(CC)CC(NC(C)=O)C1NC(C(=O)O)CC1C(=O)OC ; target: Neuraminidase ; organism: Influenza A virus ; test: target ; strain or isolate: A/TOKYO/67 ; measure: IC50 ; result: 0.0008 µM
O=C(O)CNC(=O)N1CCCC(NC(=O)c2ccc3c(c2)nc(-c2ccoc2)n3C2CCCCC2)C1 ; target: RNA-dependent RNA polymerase ; organism: Poliovirus ; test: target ; measure: IC50 ; result: >25 µM
Nc1ccn(C[C@H]2COP(=O)(O)CO2)c(=O)n1 ; organism: Variola virus ; test: culture ; strain or isolate: Isolate MINN124 ; cells: VERO ; measure: EC50 ; result: 9 µg/mL
O=C(O)c1cccc(NC(=O)N2CCCC(NC(=O)c3ccc4c(c3)nc(-c3ccoc3)n4C3CCCCC3)C2)c1 ; target: RNA-dependent RNA polymerase ; organism: Poliovirus ; test: target ; measure: IC50 ; result: >25 µM
COC(=O)C1CC(C(=O)O)NC1C(CC(C)C)NC(C)=O ; target: Neuraminidase ; organism: Influenza A virus ; test: target ; strain or isolate: A/TOKYO/67 ; measure: Ki ; result: 0.037 µM
Cn1cc(NC(=O)c2cc(NC(=O)c3cc(NC(=O)c4cc(NC(=O)c5cc(NC=O)cn5C)cn4C)cn3C)cn2C)cc1C(=O)NCCC(=N)N ; organism: Vaccinia virus ; test: culture ; strain or isolate: Noguchi ; cells: BSC-1 ; measure: inhibition ; dose: 10 µg/mL ; result: 57%
O=C(NCC1CCN(C(=O)Nc2ccccc2C(=O)O)CC1)c1ccc2c(c1)nc(-c1ccoc1)n2C1CCCCC1 ; target: RNA-dependent RNA polymerase ; organism: Poliovirus ; test: target ; measure: IC50 ; result: >25 µM
Nc1nc(=O)n([C@@H]2O[C@H](CO)[C@@H](O)[C@@H]2F)cc1I ; test: toxicity ; cells: VERO ; measure: CC50 ; result: >1000 µM
COC(=O)C(NC(=O)c1ccc2c(c1)nc(-c1ccco1)n2C1CCCCC1)c1ccc(OC)c(OC)c1 ; target: RNA-dependent RNA polymerase ; organism: Poliovirus ; test: target ; measure: IC50 ; result: >25 µM
CCCCCCCCCCCCCCCCCC(=O)OC[C@@H](COP(=O)(O)OCCNCCO[C@@]1(C(=O)O)O[C@@H]([C@H](O)[C@H](O)CO)[C@H](NC(C)=O)[C@@H](O)[C@H]1F)OC(=O)CCCCCCCCCCCCCCCCC ; target: Sialidase ; organism: Influenza A virus ; test: target ; strain or isolate: H11N3 A/DUCK/HK/44/76 ; measure: IC50 ; result: 250 µM
C1=C(c2ccccc2)COc2ccccc21 ; organism: Poliovirus ; test: culture ; strain or isolate: IB (TYPE 2) ; cells: HEP-2 ; measure: EC50 ; result: >10 µM

A second listing of 5 rows from above:

smiles | target | organism | test | strain or isolate | cells | measure | dose | result
Cn1cc(NC(=O)c2cc(NC(=O)c3cc([N+](=O)[O-])cn3C)cn2C)cc1C(=O)NCCC(=N)N | - | Vaccinia virus | culture | Noguchi | BSC-1 | inhibition | 10 µg/mL | 0%
CCCCCCCCCCCCC/C=C/[C@@H](O)[C@H](CO[C@@H]1O[C@H](CO)[C@H](O)[C@H](OS(=O)(=O)O)[C@H]1O)NC(=O)CCCCCCCCCCCCCCCCCCCCCCC | Sialidase | Influenza A virus | target | H3N8 A/mallard/Alberta/23/89 | - | inhibition | 200 µM | 48.5%
COC(=O)C(NC(=O)c1ccc2c(c1)nc(-c1ccco1)n2C1CCCCC1)c1ccc(OC)c(OC)c1 | RNA-dependent RNA polymerase | Poliovirus | target | - | - | IC50 | - | >25 µM
O=C(N[C@H](C(=O)O)c1c[nH]c2ccc(O)cc12)c1ccc2c(c1)nc(C1CCCO1)n2C1CCCCC1 | RNA-dependent RNA polymerase | Poliovirus | target | - | - | IC50 | - | >25 µM
C1=C(c2ccccc2)COc2ccccc21 | - | Poliovirus | culture | IB (TYPE 2) | HEP-2 | EC50 | - | >10 µM